PubChem BioAssay AID1259414 – Drosophila RNAi Screening Center | 2018
In all, the deposit lists about 24,000 reagents; below is an unselected part of those with a known target gene and a result. In the full data, about 1,210 (5%) got an active call. 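Inactive calls also include excluded dsRNAs with several or no targets, genes unexpressed in JW18, and well A1, regardless of score.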

- Aim: 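Host factors increasing or decreasing Wolbachia levels in cultured fly cells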 (primary screen)
- Cell system: Drosophila JW18 cells infected with Wolbachia
- Knock-down reagent: long dsRNA against Drosophila genes, 0.25 µg dsRNA per well of a 384-well plate
- Time to read-out: 5 days
- Conditions: cells persistently infected with Wolbachia before knock-down; no added drug
- Measured: 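Imaged fluorescence in situ signal for Wolbachia 23S rRNA per DAPI-counted host cell, given as a robust z-score within each plate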
- Scale: Wolbachia per cell robust z: higher = more Wolbachia per host cell than the plate typical
- Rule for the call: 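Active if absolute robust z reaches 1.5 in two or more of three replicates, leaving out multi- or no-target dsRNAs, genes unexpressed in JW18 and A1 wells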

{"target": "CG31016", "amplicon": "DRSC21359", "Wolbachia per cell robust z, rep 1": 0.802, "Wolbachia per cell robust z, rep 2": 0.387, "Wolbachia per cell robust z, rep 3": 0.537, "activity call": "inactive"}
{"target": "CG31016", "amplicon": "DRSC27353", "Wolbachia per cell robust z, rep 1": 1.09, "Wolbachia per cell robust z, rep 2": 0.984, "Wolbachia per cell robust z, rep 3": 1.4, "activity call": "inactive"}
{"target": "jar", "amplicon": "DRSC16974", "Wolbachia per cell robust z, rep 1": -1.18, "Wolbachia per cell robust z, rep 2": 0.52, "Wolbachia per cell robust z, rep 3": -0.284, "activity call": "inactive"}
{"target": "jar", "amplicon": "DRSC40715", "Wolbachia per cell robust z, rep 1": -1.7, "Wolbachia per cell robust z, rep 2": 0.178, "Wolbachia per cell robust z, rep 3": 0.841, "activity call": "inactive"}
{"target": "Alp9", "amplicon": "DRSC10486", "Wolbachia per cell robust z, rep 1": -0.802, "Wolbachia per cell robust z, rep 2": 0.199, "Wolbachia per cell robust z, rep 3": 0.57, "activity call": "inactive"}
{"target": "Alp9", "amplicon": "DRSC41598", "Wolbachia per cell robust z, rep 1": 1.23, "Wolbachia per cell robust z, rep 2": 1.05, "Wolbachia per cell robust z, rep 3": 0.894, "activity call": "inactive"}
{"target": "CG30083", "amplicon": "DRSC05572", "Wolbachia per cell robust z, rep 1": -0.175, "Wolbachia per cell robust z, rep 2": 0.723, "Wolbachia per cell robust z, rep 3": -0.49, "activity call": "inactive"}
{"target": "Sytalpha", "amplicon": "DRSC02869", "Wolbachia per cell robust z, rep 1": -1.23, "Wolbachia per cell robust z, rep 2": -0.125, "Wolbachia per cell robust z, rep 3": 0.331, "activity call": "inactive"}
{"target": "scf", "amplicon": "DRSC08735", "Wolbachia per cell robust z, rep 1": -1.47, "Wolbachia per cell robust z, rep 2": 0.389, "Wolbachia per cell robust z, rep 3": 0.125, "activity call": "inactive"}
{"target": "Rab32", "amplicon": "DRSC05146", "Wolbachia per cell robust z, rep 1": -1.14, "Wolbachia per cell robust z, rep 2": 0.258, "Wolbachia per cell robust z, rep 3": 0.109, "activity call": "inactive"}
{"target": "Rab32", "amplicon": "DRSC07522", "Wolbachia per cell robust z, rep 1": 1.02, "Wolbachia per cell robust z, rep 2": 1.21, "Wolbachia per cell robust z, rep 3": 0.0699, "activity call": "inactive"}
{"target": "Rab32", "amplicon": "DRSC28156", "Wolbachia per cell robust z, rep 1": -0.374, "Wolbachia per cell robust z, rep 2": -0.366, "Wolbachia per cell robust z, rep 3": -0.599, "activity call": "inactive"}
